Pooled drug test results. Numbers come from NIAID ChemDB, via PubChem.

All rows: whole-cell or culture tests; species: Mycobacterium avium; endpoint: MIC

Neighbouring rows are from separate reports.

SMILES,strain,read by,value
O=C(O)[C@H]1/C(=C/CO)O[C@@H]2CC(=O)N21,2 strains,-,>128 µg/mL
N#CCSc1cc(C#N)ccn1,330/88,-,62 µM
Cc1cc(C)c(-n2nnnc2SSc2nnnn2-c2c(C)cc(C)cc2C)c(C)c1,80/72,-,>1000 µM
O=Cc1coc2ccc(Cl)cc2c1=O,MY330/88,-,1000 µM
CC(C)(C)c1ccc(COC(Cn2ccnc2)c2ccc(Cl)cc2)cc1,CIP103317,-,1 µg/mL
NC[C@H]1O[C@H](O[C@H]2[C@H](O)[C@@H](O[C@H]3O[C@H](CO)[C@@H](O)[C@H](N)[C@H]3O)[C@H](N)C[C@@H]2N)[C@H](O)[C@@H](O)[C@@H]1O,Strain 1,-,6.25 µg/mL
S=c1nn[nH]n1-c1ccc(Cl)c(Cl)c1,MY330/88,-,>500 µM
CCOC1Oc2ccccc2C(=O)/C1=C\Nc1cccc(C(=O)O)c1O,MY 80/72,-,100 µg/mL
CCOC(=O)CSc1ccnc(C(N)=S)c1,330/88,-,500 µM
O=C(Nc1cccc([N+](=O)[O-])c1)c1cc(Br)ccc1O,CNCTC MY330/88,-,31 µM
CC(C)OC1Oc2ccc([N+](=O)[O-])cc2C(=O)/C1=C\Nc1ccc(C(=O)O)c(O)c1,MY 80/72,-,50 µg/mL
CCCCCCOc1cccc(NC(=O)OCCN(C)C)c1,MY330/88,-,16 µM
NC(=S)c1ccnc(N2CCCCC2)c1,330/88,-,500 µM
NCC[C@H](O)C(=O)N[C@@H]1C[C@H](N)[C@@H](O[C@H]2O[C@H](CN)[C@@H](O)[C@H](O)[C@H]2O)[C@H](O)[C@H]1O[C@H]1O[C@H](CO)[C@@H](O)[C@H](N)[C@H]1O,IWGMT49,broth dilution,8 µg/mL
CC1COc2c(N3CCN(C)CC3)c(F)cc3c(=O)c(C(=O)O)cn1c23,20 strains,-,>10 µg/mL
CCCCCOc1ccccc1NC(=O)OCC[NH+]1CCCC1,MY330/88,-,125 µM
O=c1oc2ccc(Cl)cc2c(=S)n1-c1cccc(Cl)c1,MY330/88,-,31 µM
CC(C)c1ccc(NC(=O)CCC(=O)Nc2ccc(C(C)C)cc2)cc1,-,-,63 µM
CCCCOc1cccc(NC(=O)OCC[NH+]2CCCC2)c1,MY330/88,-,125 µM
Cc1cccc(C(N)=Nc2nc(-c3ccccn3)cc3ccccc23)c1,SN 304,-,0.5 µg/mL
Cc1ccc(C(Cn2ccnc2)OCc2cccc3ccccc23)cc1,CIP103317,-,0.5 µg/mL
CC[C@H]1OC(=O)[C@H](C)[C@@H](O[C@H]2C[C@@](C)(OC)[C@@H](O)[C@H](C)O2)[C@H](C)[C@@H](O[C@@H]2O[C@H](C)C[C@H](N(C)C)[C@H]2O)[C@](C)(OC)C[C@@H](C)C(=O)[C@H](C)[C@@H](O)[C@]1(C)O,-,-,2 µg/mL
CCCCCCOc1ccc(NC(=O)OCC[NH+]2CCCC2)cc1,MY330/88,-,32 µM
c1ccc(C(Cn2ccnc2)OCc2cccc3ccccc23)cc1,CIP103317,-,2 µg/mL
CCOC1Oc2ccccc2C(=O)/C1=C\Nc1ccc(C(=O)O)c(O)c1,MY 80/72,-,25 µg/mL
Cc1ccc(NC(=O)CCC(=O)Nc2ccc(C)c(C)c2)cc1C,-,-,>1000 µM
CCOC(=O)CSc1ccnc(C#N)c1,330/88,-,1000 µM
CCC(C)c1ccc(NC(=O)CCC(=O)Nc2ccc(C(C)CC)cc2)cc1,-,-,63 µM
CCCOc1cccc(NC(=O)OCCN2CCCCCC2)c1,MY330/88,-,125 µM
c1ccc(-c2ccc(CNC(Cn3ccnc3)c3ccccc3)cc2)cc1,103317,-,11.3 µM
O=Cc1coc2ccc([N+](=O)[O-])cc2c1=O,MY330/88,-,1000 µM
c1ccc(-c2ccc(CNc3cccc(N4CCSCC4)c3)cc2)cc1,103317,-,>16 µg/mL
Brc1ccc(-n2nnnc2SSc2nnnn2-c2ccc(Br)cc2)cc1,80/72,-,1000 µM
CCCCCOc1ccc(NC(=O)OCC[NH+]2CCCC2)cc1,MY330/88,-,62.5 µM
Cc1ccc(C(Cn2ccnc2)OCc2ccc(-c3ccccc3)cc2)cc1,CIP103317,-,4 µg/mL
N#CCCSc1cc(C#N)ccn1,330/88,-,500 µM
Cc1ccc(C(Cn2ccnc2)OCc2ccc(C(C)(C)C)cc2)cc1,CIP103317,-,2 µg/mL
Oc1ccc(CCN=C=S)cc1,-,visual reading,32 µg/mL
CCCCCCCCCCOc1ccccc1NC(=O)OCCN(C)C,MY330/88,-,8 µM
O=C(CCC(=O)Nc1ccccc1)Nc1ccccc1,-,-,500 µM
O=c1oc2ccc(Cl)cc2c(=S)n1-c1ccccc1,MY330/88,-,31 µM
CN1CCN(c2ccccc2NCc2ccc(Cl)cc2)CC1,103317,-,97.8 µM
Cc1ccc(-n2c(=O)oc3ccc(Cl)cc3c2=S)cc1,MY330/88,-,31 µM
C(=C\c1ccccc1)/CCNc1cccc(N2CCSCC2)c1,103317,-,4 µg/mL
N#CCCCSc1ccnc(C(=N)N)c1,330/88,-,1000 µM
COc1ccc(C(N)=Nc2nc(-c3ccccn3)cc3ccccc23)cc1,SN 304,-,0.25 µg/mL
C[C@@H]([C@H](NC(=O)[C@H](Cc1ccc2ccccc2c1)NC(=O)N[C@@H](Cc1c[nH]c2ccccc12)C(=O)NCC(C)(C)C)C(=O)NC[C@H]1C[C@@H](O)[C@H](n2ccc(=O)[nH]c2=O)O1)N(C)C(=O)CN,CA6,resazurin / fluorescence,0.8 µM
CCOc1ccc(NC(=O)OCC[NH+]2CCCC2)cc1,MY330/88,-,>1000 µM
CCOC1Oc2ccc([N+](=O)[O-])cc2C(=O)/C1=C\Nc1ccc(C(=O)O)c(O)c1,MY 80/72,-,25 µg/mL
S=c1oc2ccc(Cl)cc2c(=S)n1-c1cccc(Cl)c1,MY330/88,-,31 µM
CC(=O)Nc1ccc(/C=N/NC(N)=S)cc1,168,-,0.08 µg/mL
Clc1ccc(C(Cn2ccnc2)OCc2cccc3ccccc23)c(Cl)c1,CIP103317,-,1 µg/mL
NC(=Nc1nc(-c2ccccn2)cc2ccccc12)c1ccc(Cl)c(Cl)c1,SN 304,-,0.5 µg/mL
C[C@@H]1CN(c2c(F)c(N)c3c(=O)c(C(=O)O)cn(C4CC4)c3c2F)C[C@H](C)N1,ATCC 15769,broth dilution / visual reading,0.5 µg/mL
Fc1ccc(-n2nnnc2SSc2nnnn2-c2ccc(F)cc2)cc1,80/72,-,>1000 µM
Clc1ccc(C(Cn2ccnc2)OC/C=C/c2ccccc2)c(Cl)c1,CIP103317,-,8 µg/mL
c1ccc(C(Cn2ccnc2)NCc2cccc3ccccc23)cc1,103317,-,24.4 µM
Cc1ccc(C(=O)Nc2cccc([N+](=O)[O-])c2)c(O)c1,CNCTC MY330/88,-,31 µM
O=Cc1coc2ccc(F)cc2c1=O,MY330/88,-,>1000 µM
O=c1oc2ccc(Cl)cc2c(=O)n1-c1ccc(Cl)c(Cl)c1,MY330/88,-,8 µM
C[C@@H]1C(=O)C[C@H]2[C@H]1CC[C@@](C)(O)[C@H]1CC[C@](C)(O1)[C@@H]2O,-,-,128 µg/mL
O=c1oc2ccc(Cl)cc2c(=S)n1-c1ccc(Cl)cc1,MY330/88,-,16 µM
CC(C)c1c(O)cc([C@H](N=C(N)N)C(=O)NCC(=O)O)cc1O,Strain #2,-,0.39 µg/mL
O=C(Nc1cccc(Cl)c1)c1cc(Br)ccc1O,CNCTC MY330/88,-,31 µM
CN1CCN(c2ccccc2NCc2ccc(-c3ccccc3)cc2)CC1,103317,-,2 µg/mL
CCOC(=O)/C(N=Nc1ccc(C(=O)N/N=C/c2ccc([N+](=O)[O-])o2)cc1)=C(\C)O,-,-,>12.5 µg/mL
CCCCCCOc1ccc(NC(=O)OCCN2CCCCCC2)cc1,MY330/88,-,8 µM
Clc1ccc(C(Cn2ccnc2)NC/C=C/c2ccccc2)cc1,103317,-,94.7 µM
CN1CCN(c2cccc(NCc3ccc(Cl)cc3)c2)CC1,103317,-,16 µg/mL
O=C(Nc1ccc(Br)cc1)c1cc(F)ccc1O,CNCTC MY330/88,-,8 µM
Clc1ccc(/C(Cn2ccnc2)=N\OC/C=C/c2ccccc2)c(Cl)c1,103317,-,20.7 µM
S=c1oc2ccc(Cl)cc2c(=S)n1-c1ccccc1,MY330/88,-,16 µM
c1ccc(-c2ccc(COC(Cn3ccnc3)c3ccccc3)cc2)cc1,CIP103317,-,1 µg/mL
Cc1ccc(-n2c(=O)oc3ccc(Cl)cc3c2=O)cc1,MY330/88,-,16 µM
COc1cccc(C(N)=Nc2nc(-c3ccccn3)cc3ccccc23)c1,SN 304,-,0.5 µg/mL
Clc1ccc(CNc2cccc(N3CCOCC3)c2)cc1,103317,-,50.1 µM
Clc1ccc(CNc2ccccc2N2CCOCC2)cc1,103317,-,4 µg/mL
Cc1c(F)c(N2CCNC(C)C2)cc2c1c(=O)c(C(=O)O)cn2C1CC1,25-3,-,0.25 µg/mL
O=C(Nc1cccc(F)c1)c1cc(Br)ccc1O,CNCTC MY330/88,-,31 µM
N#Cc1cc(N2CCCCC2)ccn1,330/88,-,1000 µM
O=c1oc2ccc(Cl)cc2c(=O)n1-c1ccc(Br)cc1,MY330/88,-,8 µM

For reference, 10 entries again:

SMILES | strain | read by | value
c1ccc(-c2ccc(CNc3cccc(N4CCSCC4)c3)cc2)cc1 | 103317 | - | >16 µg/mL
c1ccc(C(Cn2ccnc2)OCc2cccc3ccccc23)cc1 | CIP103317 | - | 2 µg/mL
Clc1ccc(/C(Cn2ccnc2)=N\OC/C=C/c2ccccc2)c(Cl)c1 | 103317 | - | 20.7 µM
CCCCCOc1ccc(NC(=O)OCC[NH+]2CCCC2)cc1 | MY330/88 | - | 62.5 µM
c1ccc(-c2ccc(COC(Cn3ccnc3)c3ccccc3)cc2)cc1 | CIP103317 | - | 1 µg/mL
Clc1ccc(CNc2ccccc2N2CCOCC2)cc1 | 103317 | - | 4 µg/mL
Clc1ccc(C(Cn2ccnc2)OCc2cccc3ccccc23)c(Cl)c1 | CIP103317 | - | 1 µg/mL
Fc1ccc(-n2nnnc2SSc2nnnn2-c2ccc(F)cc2)cc1 | 80/72 | - | >1000 µM
CC(C)(C)c1ccc(COC(Cn2ccnc2)c2ccc(Cl)cc2)cc1 | CIP103317 | - | 1 µg/mL
N#CCSc1cc(C#N)ccn1 | 330/88 | - | 62 µM

Blank or dashed fields: not listed here.